Values from PubChem BioAssay AID504761 (Drosophila RNAi Screening Center, 2011).
In all, the deposit lists about 22,000 reagents; shown is a random part of those with a known target gene and a result. Over the whole deposit, 116 (0.52%) were called active. 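Calls depend on retest data that are not deposited; infection was ranked per plate without normalising between plates; the unit of the infection score is not given.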 Reagents against one gene are numbered here. A plus sign joins genes that one reagent is predicted to hit. Not all columns of the deposit are shown. The record does not give: the amount of reagent, the time to read-out.

Purpose: 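Insect host genes that dengue virus relies on to spread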 (primary screen)
Cells: D.Mel-2 cells from Drosophila
Reagent: long dsRNA against Drosophila genes
Treatment: infection with dengue virus type 2; dose and infection time not stated
Read-out: 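Per well on two replicate plates, imaging gave the percent of cells positive for viral envelope protein, ranked by infection, and a nuclear count of cells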
Scale: infection score: higher = more virus-infected cells
Call rule: 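Low infection ranks in the two replicates (chance level up to 0.065) followed by a retest with a 1.5-fold or larger significant decrease, p below 0.05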
Meaning of the calls: active = confirmed: knock-down lowers infection; inactive = not picked or not confirmed

gene,reagent no.,"infection score, replicate 1","infection score, replicate 2",Outcome
CG17122,1,9.84,14.7,inactive
CG17122,2,21.2,,inactive
CG12935 + Nop10,1,7.64,3.87,inactive
CG18213,1,2.53,6.36,inactive
Wnt4,1,1.96,0.06,inactive
Wnt4,2,4.68,9.96,inactive
me31B,1,5.66,0.93,inactive
Hsp70Bb + Hsp70Ba + Hsp70Bc + 1 more,1,1.61,1.37,inactive
Hsp70Bb + Hsp70Ba + Hsp70Bc + 1 more,2,4.79,3.43,inactive
PIG-B,1,9.14,13.1,inactive
PIG-B,2,16.6,20.4,inactive
CG15332,1,1.59,2.07,inactive
CG15332,2,7.17,5.65,inactive
mbc,1,6.8,1.58,inactive
ATP7,1,0.89,1.39,inactive
CG15657,1,13.6,17.2,inactive
Grip163,1,2.11,2.58,inactive
Grip163,2,2.37,7.22,inactive
rad (retired record),1,11.8,4.02,inactive
rad (retired record),2,1.55,1.84,inactive
Act42A,1,6.82,8.26,inactive
Act42A,2,8.52,13.1,inactive
CG16903,1,7.57,6.76,inactive
CG3703,1,1.96,0.64,inactive
CG3703,2,0.93,4.1,inactive
CG3703,3,2.36,1.68,inactive
Lk,1,2.49,2.52,inactive
Kr-h2,1,4.08,2.14,inactive
TBC1D5,1,12.8,16.2,inactive
TBC1D5,2,2.2,9.65,inactive
CG17104,1,12.3,4.62,inactive
CG17104,2,12.2,15.4,inactive
CG3611,1,4.03,11.1,inactive
CG12229,1,20.4,2.75,inactive
arr,1,,1.13,inactive
arr,2,1.95,2.25,inactive
Dll,1,9.66,15.6,inactive
Dll,2,5.22,3.73,inactive
mAChR-C,1,4.09,7.05,inactive
mAChR-C,2,24.7,41.7,inactive

Single entries from the list.
For “Outcome”, Hsp70Bb + Hsp70Ba + Hsp70Bc + 1 more #1 reads inactive
For “infection score, replicate 2”, Kr-h2 has 2.14
Under “Outcome”, CG17122 #1 has inactive
Under “Outcome”, arr #1 reads inactive
me31B, Outcome → inactive
